Measured values published in publication PMC5437231.

Target: DC4-2.J41.gp41(BG505) Env (HIV-1 clade C, strain 4-2.J41 | HIV-1 clade A, strain BG505)

Substance: soluble CD4 (from UniProt P01730 26-396) (receptor)
- IP with 447-52D or 17b and Western blot after incubation with sCD4 (1x, 5x, 20x molar): excess of sCD4 needed to expose V3 and bridging sheet epitopes: 20 M excess
